Values quoted from earlier work as cited in patent US7862843B2 (priority 2004, dated 2011).

Test system: BSE-infected bovine brain and scarpie-infected rodent brain
Settings: 1 or 2 M, up to 2 hours

[Na+].[OH-] [sodium hydroxide]
Inactivation of the infectivity of prions: did not completely inactivate
